# Values from PubChem BioAssay AID1259414 (Drosophila RNAi Screening Center, 2018)
# Assay: 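Genome-wide screen for host control of endosymbiont load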 (primary screen)
# Cells: Drosophila JW18 cells infected with Wolbachia
# Reagents: long dsRNA against Drosophila genes, 0.25 µg dsRNA per well of a 384-well plate
# Timing: 5 days
# Treatment: cells persistently infected with Wolbachia before knock-down; no added drug
# Measurement: 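Automated imaging of bacterial rRNA staining divided by host cell count, reported as plate-normalised robust z-score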
# Scale: Wolbachia per cell robust z: higher = more Wolbachia per host cell than the plate typical
# Active means: 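Hit when robust z is 1.5 or more, or -1.5 or less, in at least two of three replicates; excludes dsRNAs with several or no targets, genes not expressed in JW18 and well A1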
# The deposit covers about 24,000 reagents; this is an unselected part of those that have a named target and a result. Of all reagents, about 1,210 (5%) got an active call. 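Inactive calls also include excluded dsRNAs with several or no targets, genes unexpressed in JW18, and well A1, regardless of score.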 Names joined by + are all predicted targets of the reagent.
gene,amplicon,"Wolbachia per cell robust z, rep 1","Wolbachia per cell robust z, rep 2","Wolbachia per cell robust z, rep 3",Call
CG4896,DRSC00671,-1.93,-2.23,1.34,active
CG4896,DRSC24570,-0.114,-0.908,-0.198,inactive
Cyp12a5,DRSC16621,0.0444,-0.407,-1.31,inactive
Cyp12a5,DRSC24826,1.48,-7.45,-0.345,inactive
CG13403,DRSC19535,1.17,0.627,0.699,inactive
CG13403,DRSC26850,-0.292,0.413,0.794,inactive
can,DRSC10664,0.185,-1.2,0.991,inactive
kcc,DRSC04316,-0.86,0.0239,0.244,inactive
kcc,DRSC04516,0.162,0.0842,0.463,inactive
Tbce,DRSC04897,0.0738,1.06,1.15,inactive
CG15784,DRSC18090,0.127,-3.37,0.00836,inactive
CG15784,DRSC25383,0.661,1.64,-1.12,inactive
VGlut,DRSC00733,-0.0258,-0.416,0.835,inactive
VGlut,DRSC21821,0.703,-0.222,-0.776,inactive
stum,DRSC04268,0.971,-0.632,-0.298,inactive
stum,DRSC04270,-5.94,-0.716,-1.22,inactive
net,DRSC00309,-3.57,0.19,1.17,inactive
RpL29,DRSC04650,-0.921,-0.0382,-0.16,inactive
P58IPK,DRSC16404,-1.19,-0.182,0.0789,inactive
P58IPK,DRSC27012,0.377,-0.44,-0.734,inactive
Cyp6a15Psi,DRSC07377,0.0754,-0.0628,0.674,inactive
Cyp6a15Psi,DRSC28316,-0.23,-0.143,-0.803,inactive
CG17752,DRSC15262,0.335,-3.74,-5.85,active
CG17752,DRSC26265,-0.257,0.779,1.28,inactive
Fit2,DRSC10908,1.05,0.366,-2.24,inactive
Lpin,DRSC07241,0.908,-1.2,-1.05,inactive
htl,DRSC16968,0.318,-0.399,0.413,inactive
htl,DRSC36668,-0.4,1.26,1.23,inactive
htl,DRSC40656,-0.344,0.263,-0.0198,inactive
CycJ,DRSC08653,-0.292,-0.191,0.423,inactive
CycJ,DRSC29329,-3.16,-0.262,-0.184,inactive
CG31960,DRSC00281,-2.6,-1.04,0.261,inactive
CG31960,DRSC26274,-0.302,0.668,0.0191,inactive
ssp2,DRSC11052,-1.99,0.846,0.758,inactive
ssp2,DRSC23906,-14.5,-0.842,0.376,inactive
His2B:CG33878 + His2B:CG33908 + His2B:CG33886 + 21 more,DRSC03757,-0.209,-0.0234,-5.49,inactive
Tim8,DRSC20291,-0.04,-2.4,0.23,inactive
CG34220,DRSC38611,-2.31,0.659,-1.65,active
betaNACtes4,DRSC19801,0.856,-0.529,-1.96,inactive
Octbeta2R,DRSC12917,-0.977,-0.507,-0.554,inactive
Octbeta2R,DRSC15350,0.562,0.328,-0.256,inactive
Octbeta2R,DRSC16165,-0.784,0.395,-2.11,inactive
Octbeta2R,DRSC25380,-0.404,-5.93,-0.638,inactive
Octbeta2R,DRSC26383,0.179,-0.454,-0.855,inactive
sofe,DRSC19751,-0.645,-1.26,-0.965,inactive
mRpS24 + TBC1d7,DRSC14611,1.03,0.699,0.287,inactive
Ugt305A1,DRSC08541,-0.892,-1.85,-0.482,inactive
Ugt305A1,DRSC26426,0.926,0.98,0.844,inactive
CG4020,DRSC18337,-0.916,0.278,1.02,inactive
UQCR-11L,DRSC22166,0.561,-0.056,0.0752,inactive
UQCR-11L,DRSC41490,0.765,-1.58,-1.37,inactive
Sgs4,DRSC18715,0.0785,-0.677,-2.68,inactive
Sgs4,DRSC28964,0.844,-0.122,0.426,inactive
CG16824,DRSC02525,0.219,0.922,-0.31,inactive
CG16824,DRSC41493,0.273,-0.358,-0.415,inactive
Ctr1B + Poxm,DRSC16245,-1.48,-7.1,-1.18,inactive
CG33301,DRSC02778,0.868,0.366,-0.684,inactive
CG33301,DRSC25325,0.769,1.23,0.772,inactive
Der-1,DRSC00301,-0.565,-7.2,1.13,inactive
CG34301,DRSC38825,0.146,1.04,0.272,inactive
SkpE,DRSC19431,-3.11,0.447,-1.29,inactive
SA2,DRSC08385,0.42,-3.48,0.799,inactive
CG7997,DRSC07052,-0.248,0.531,0.223,inactive
CG7997,DRSC25706,-0.515,-1.29,-0.159,inactive
CG8192,DRSC24995,-0.0901,-0.54,-1.41,inactive
RpS28-like,DRSC38760,0.11,0.719,-1.33,inactive
CG17834,DRSC02637,-1.25,-1.4,-1.93,inactive
CG17834,DRSC26694,-2.39,-1.78,-0.124,active
Grik,DRSC15846,0.339,-0.137,0.598,inactive
Grik,DRSC15847,0.259,0.369,0.72,inactive
Grik,DRSC26067,1.1,1.13,0.623,inactive
polyph,DRSC06254,-0.245,-0.756,0.33,inactive
CG10761,DRSC17753,0.111,0.495,-0.661,inactive
CG10761,DRSC27665,0.259,-1.88,-0.135,inactive
FMRFaR,DRSC08555,-0.18,-0.677,0.328,inactive
CG43235,DRSC40529,0.562,0.741,-1.1,inactive
CG6753,DRSC16108,-0.184,-2.68,-0.455,inactive
CG6753,DRSC28449,0.244,0.788,0.304,inactive
lncRNA:iab8,DRSC22252,-1.19,-1.36,-0.53,inactive
lncRNA:iab8,DRSC28445,-0.121,0.325,0.904,inactive
UQCR-C2,DRSC10405,0.48,0.478,1.16,inactive
UQCR-C2,DRSC28912,0.19,-0.775,-0.151,inactive
beat-Ia,DRSC03489,0.475,-0.827,-5.37,inactive
beat-Ia,DRSC25576,1.06,0.633,2.25,inactive
CG6707,DRSC10697,-0.746,-6.02,-3.01,active
CG3492,DRSC04373,0.447,-0.455,0.373,inactive
CG14105,DRSC10107,-1.12,0.0542,-1.3,inactive

Called active, of those listed so far:
gene,amplicon,"Wolbachia per cell robust z, rep 1","Wolbachia per cell robust z, rep 2","Wolbachia per cell robust z, rep 3",Call
CG4896,DRSC00671,-1.93,-2.23,1.34,active
CG17752,DRSC15262,0.335,-3.74,-5.85,active
CG34220,DRSC38611,-2.31,0.659,-1.65,active
CG17834,DRSC26694,-2.39,-1.78,-0.124,active
CG6707,DRSC10697,-0.746,-6.02,-3.01,active
